Assay results: US20230338478A1 (University of Pennsylvania, published 2023)

Target: T1, SARS-CoV-2 RBD 417N/484K/501Y (South Africa, B.1.351), purified recombinant (SARS-CoV-2)
T1 construct: range […]
Assay: SPR, decoy-Fc captured on protein A/G chip, RBD injected, 1:1 fit

B1: ACE2-wt-Fc4 (Fc fusion)
chain: not shown
Q: B1 was tested. Which Kd did it give?
A: 12.2 nM
